Results as given in paper PMC12945441.

Molecular target: SARS-CoV-2 Wuhan-Hu-1 receptor-binding domain (SARS-CoV-2 Wuhan-Hu-1)
Assay: ELISA

Substance: S2E12
- IC50: 0.0221 µg/mL
